Measured values from several laboratories, pooled; numbers as filed in NIAID ChemDB.

All rows: tests in culture; organism: Enterococcus faecalis; endpoint: MIC

Neighbouring rows are from separate reports.

smiles | strain | result
O=C(Nc1cc(C(F)(F)F)cc(C(F)(F)F)c1)NS(=O)(=O)c1ccc(OC(F)(F)F)cc1 | STD44 | >200 µM
O=C(O)NC[C@H]1CC(c2cc(F)c(N3CCOCC3)c(F)c2)=NO1 | UC9217 | 4 µg/mL
O=C(NC[C@H]1CN(c2ccc(C3CCS(=O)(=O)CC3)c(F)c2)C(=O)O1)C1CC1 | UC9217 | 4 µg/mL
CC(=O)NC[C@H]1CN(c2ccc(-c3ccn(CCC#N)n3)c(F)c2)C(=O)O1 | UC9217 | 8 µg/mL
O=C(NNC(=O)Nc1ccccc1C(F)(F)F)Nc1cc(C(F)(F)F)cc(C(F)(F)F)c1 | STD44 | >422 µM
CC(=O)NC[C@H]1CN(c2ccc(-c3ccn[nH]3)c(F)c2)C(=O)O1 | UC9217 | 4 µg/mL
O=C(NNc1ccccn1)Nc1cc(C(F)(F)F)cc(C(F)(F)F)c1 | STD44 | >300 µM
C=CCn1cc(-c2ccc(N3C[C@H](CNC(C)=O)OC3=O)cc2F)cn1 | UC9217 | 2 µg/mL
COC(=O)N1CC=C(c2ccc(C3=NO[C@H](CNC(=O)O)C3)cc2)CC1 | UC9217 | >16 µg/mL
CC(=O)NC[C@H]1CN(c2ccc(-c3cnn(Cc4ccccc4)c3)c(F)c2)C(=O)O1 | UC9217 | 4 µg/mL
O=C(NNC(=O)Nc1cc(C(F)(F)F)cc(C(F)(F)F)c1)Nc1ccccc1 | STD44 | >200 µM
N#Cc1cnn(-c2ccc(C3=NO[C@@H](CNC(=O)O)C3)cc2F)c1 | UC9217 | 4 µg/mL
CC(=O)NC[C@H]1CN(c2ccc(-c3cc(CO)on3)c(F)c2)C(=O)O1 | UC9217 | 2 µg/mL
CC(=O)NC[C@H]1CN(c2ccc(C3CCS(=O)(=O)CC3)c(F)c2)C(=O)O1 | UC9217 | 1 µg/mL
COC(=O)N1CC=C(c2ccc(C3=NO[C@@H](CNC(=O)O)C3)cc2)CC1 | UC9217 | 4 µg/mL

Repeating the final 2 entries:

smiles,strain,result
CC(=O)NC[C@H]1CN(c2ccc(C3CCS(=O)(=O)CC3)c(F)c2)C(=O)O1,UC9217,1 µg/mL
COC(=O)N1CC=C(c2ccc(C3=NO[C@@H](CNC(=O)O)C3)cc2)CC1,UC9217,4 µg/mL